A mixed list of measured activities; the numbers were collected in NIAID ChemDB.

Common to all: whole-cell or culture tests; agent: Cryptococcus neoformans; endpoint: MIC

Blank or dashed fields: not listed here. Lines come from different laboratories, so protocols vary. a–b is a range or a potency band.

{"compound": "CC(=O)C1CC([C@H]2O[C@@H]3OC(C)(C)O[C@@H]3[C@H]2OCc2ccccc2)=NO1", "value": "12.5 µg/mL"}
{"compound": "CCCCCCCCCCCCCCCC(=O)NC(CCCN)C(=O)NC(CCCN)C(=O)NC(CCCN)C(N)=O", "strain or isolate": "ATCC 2344", "read by": "broth dilution", "value": "6.25 µg/mL"}
{"compound": "CCCCCCCCCCSCC(OC)C(=O)O", "strain or isolate": "ATCC66031", "value": "0.00124 µM"}
{"compound": "CCCCCCCCCCCCCCCC(=O)NC(CCCN)C(=O)NC(CCCN)C(=O)NC(CCCN)C(=O)NC(CCCN)C(=O)NC(CCCN)C(N)=O", "strain or isolate": "ATCC 2344", "read by": "broth dilution", "value": "6.25 µg/mL"}
{"compound": "C[C@H](n1nnnc1CCN1CCN(c2ccccn2)CC1)[C@](O)(Cn1cncn1)c1ccc(F)cc1F", "strain or isolate": "LA314", "value": "4 µg/mL"}
{"compound": "Clc1ccc(C(Cn2ccnc2)OCc2ccc(-c3ccccc3)cc2)c(Cl)c1", "value": ">128 µg/mL"}
{"compound": "COc1ccc(/C=C/C(=O)c2ccc3sccc3c2O)cc1", "value": ">50 µg/mL"}
{"compound": "C=CC[C@@H]1/C=C(/C)C[C@H](C)C[C@H](OC)[C@H]2O[C@@](O)(C(=O)C(=O)C3CCCC[C@H]3C(=O)O[C@H](/C(C)=C/[C@@H]3CC[C@@H](O)[C@H](OC)C3)[C@H](C)[C@@H](O)CC1=O)[C@H](C)C[C@@H]2OC", "strain or isolate": "H99", "read by": "visual reading", "value": "0.01 µg/mL"}
{"compound": "C[C@H](n1nnc(CCN2CCN(c3ccc(F)cc3)CC2)n1)[C@](O)(Cn1cncn1)c1ccc(F)cc1F", "strain or isolate": "LA314", "value": "2 µg/mL"}
{"compound": "Clc1ccc(C(Cn2ccnc2)OCc2cccc3ccccc23)c(Cl)c1", "value": ">128 µg/mL"}
{"compound": "CCC(C)n1ncn(-c2ccc(N3CCN(c4ccc(OC[C@H]5CO[C@](Cn6cncn6)(c6ccc(Cl)cc6Cl)O5)cc4)CC3)cc2)c1=O", "strain or isolate": "3", "value": "0.1 µg/mL"}
{"compound": "Cc1ccc(C(Cn2ccnc2)OC/C=C/c2ccccc2)cc1", "value": ">128 µg/mL"}
{"compound": "CCOC(=O)C1CC([C@H]2O[C@@H]3OC(C)(C)O[C@@H]3[C@H]2OC)=NO1", "value": "25 µg/mL"}
{"compound": "S=c1onc(-c2ccccn2)n1-c1ccccc1", "value": "0.39 µg/mL"}
{"compound": "COc1c(O)ccc2c(=O)c3c(O)cc4c(c3oc12)C(C)(C)C(C)O4", "read by": "broth dilution", "value": "42 µg/mL"}
{"compound": "CCCCCCCCCCCCCCCCCC(=O)NC(CCCN)C(=O)NC(CCCN)C(=O)NC(CCCN)C(=O)NC(CCCN)C(N)=O", "strain or isolate": "ATCC 2344", "read by": "broth dilution", "value": "6.25 µg/mL"}
{"compound": "COc1ccc2c(c1)C(=O)/C(=C/c1ccc(OC)c(OC)c1)CO2", "strain or isolate": "Farwania", "value": "1.5 µg/mL"}
{"compound": "O=C(/C=C/c1ccccc1)c1ccc2sccc2c1O", "value": "25 µg/mL"}
{"compound": "CN[C@@H]1[C@H](O[C@@H]2OC[C@@H](O)[C@H](O)[C@H]2O)[C@@H](O)[C@H](O[C@H]2c3cc(C)c(C(=O)N[C@H](C)C(=O)O)c(O)c3-c3c(cc4c(c3O)C(=O)c3cc(OC)cc(O)c3C4=O)[C@@H]2O)O[C@@H]1C", "strain or isolate": "D49", "value": "0.8 µg/mL"}
{"compound": "C[C@H](n1nnnc1CCN1CCN(c2ccc([N+](=O)[O-])cc2)CC1)[C@](O)(Cn1cncn1)c1ccc(F)cc1F", "strain or isolate": "LA314", "value": ">8 µg/mL"}
{"compound": "COc1ccc(/C=C/C(=O)c2ccc3c(ccn3C)c2O)cc1", "value": "25 µg/mL"}
{"compound": "C[C@H](n1nnc(CCN2CCN(c3cccc(Cl)c3)CC2)n1)[C@](O)(Cn1cncn1)c1ccc(F)cc1F", "strain or isolate": "LA314", "value": "4 µg/mL"}
{"compound": "COC12C=CC(=O)C=C1C(=O)c1ccccc1O2", "strain or isolate": "ATCC90112", "value": "15.6 µg/mL"}
{"compound": "CC(C)(C)c1ccc(CN(Cc2cccs2)n2ccnc2)cc1", "value": "67 µM"}
{"compound": "CCOC1CC([C@H]2O[C@@H]3OC(C)(C)O[C@@H]3[C@H]2OC)=NO1", "value": "25 µg/mL"}
{"compound": "CC(CCC(=O)NCCCNCCCCNCCCN)[C@H]1CCC2C3CC[C@@H]4C[C@H](OS(=O)(=O)O)CC[C@]4(C)C3C[C@H](C)[C@@]21C", "strain or isolate": "M68979", "value": "50 µg/mL"}
{"compound": "CC[C@@H]1[C@@H](Cn2cncn2)[C@H](COc2ccc(OC(F)(F)F)cc2)CC[C@@]1(C)CCN1CCOCC1", "strain or isolate": "CY1057", "value": "0.02 µg/mL"}
{"compound": "CCCCCCCC(=O)NC(CCCN)C(=O)NC(CCCN)C(=O)NC(CCCN)C(N)=O", "strain or isolate": "ATCC 2344", "read by": "broth dilution", "value": ">100 µg/mL"}
{"compound": "Clc1ccc(C(Cn2ccnc2)OCc2ccc(-c3ccccc3)cc2)cc1", "value": ">128 µg/mL"}
{"compound": "COc1ccccc1N1CCN(CCc2nnnn2[C@@H](C)[C@](O)(Cn2cncn2)c2ccc(F)cc2F)CC1", "strain or isolate": "LA314", "value": "8 µg/mL"}
{"compound": "CCO[C@@H]1[C@@H](OCC)[C@H](Cc2ccccc2)O[C@@H]2CO[C@@H](c3ccc(Cl)cc3)O[C@@H]12", "strain or isolate": "ATCC90112", "value": ">25 µg/mL"}
{"compound": "C[C@H](n1nnc(CCN2CCN(c3ccccc3)CC2)n1)[C@](O)(Cn1cncn1)c1ccc(F)cc1F", "strain or isolate": "LA314", "value": ">16 µg/mL"}
{"compound": "Cn1c(-c2ccccn2)nsc1=O", "value": "0.06 µg/mL"}
{"compound": "COc1c(C(=O)/C=C(\\O)c2ccccc2)ccc2sccc12", "value": ">50 µg/mL"}
{"compound": "O=C1/C(=C/c2ccc3c(c2)OCO3)COc2ccc(-c3ccccc3)cc21", "strain or isolate": "93/V", "value": "50 µg/mL"}
{"compound": "CC[C@@]1(O)C[C@H](O[C@H]2C[C@H](N(C)C)[C@H](O[C@H]3C[C@H](O)[C@H](O[C@H]4CCC(=O)[C@H](C)O4)[C@H](C)O3)[C@H](C)O2)c2c(cc3c(c2O)C(=O)c2c(O)cccc2C3=O)[C@H]1C(=O)OC", "strain or isolate": "Serotype D", "value": "0.8 µg/mL"}
{"compound": "COc1ccccc1N1CCN(CCc2nnn([C@@H](C)[C@](O)(Cn3cncn3)c3ccc(F)cc3F)n2)CC1", "strain or isolate": "LA314", "value": ">8 µg/mL"}
{"compound": "CCCCCCCC/C=C/CC/C=C/[C@H]1C[C@H]([C@](O)(CC(=O)O[C@@H](C(=O)O)[C@H](CC(=O)O)C(=O)O)C(=O)O)C(=O)O1", "value": "6.8 µM"}
{"compound": "C=C1/C=C(\\C)[C@H](CC)OC(=O)[C@H](C)C(=O)C(O)(CO)C/C(OC)=C/[C@@H](C)C1", "strain or isolate": "MY1146", "value": "0.001 µg/mL"}
{"compound": "N=C(N)c1ccc2nc(-c3ccc(-c4nc5ccc(C(=N)N)cc5[nH]4)[nH]3)[nH]c2c1", "strain or isolate": "H99", "value": "0.78 µg/mL"}
{"compound": "C[C@H](n1nnc(CCN2CCN(c3ccccc3)CC2)n1)[C@](O)(Cn1cncn1)c1ccc(F)cc1F", "strain or isolate": "LA314", "value": "8 µg/mL"}
{"compound": "CO[C@@H]1[C@H]2OC(C)(C)O[C@H]2O[C@@H]1C1=NOC(C#N)C1", "value": "50 µg/mL"}
{"compound": "C/C=C/C=C(/C)C(=O)O[C@H]1[C@H](O)[C@H](OCC23C4C=C(C(C)C)C2(C(=O)O)C(C=O)(C4)[C@@H]2CC[C@@H](C)[C@H]23)O[C@H](C)[C@H]1OC", "strain or isolate": "2867E", "value": "1 µg/mL"}
{"compound": "COc1ccc(/C=C2\\CSc3ccc(Cl)cc3C2=O)cc1", "strain or isolate": "93/V", "value": "12.5 µg/mL"}
{"compound": "CCCSc1ccc2nc(NC(=O)OC)[nH]c2c1", "strain or isolate": "93-219", "conditions": "48 h", "value": "≤0.6 µg/mL"}
{"compound": "Cn1ccc2c3oc(-c4ccccc4)c(O)c(=O)c3ccc21", "value": ">50 µg/mL"}
{"compound": "CCC(C)n1ncn(-c2ccc(N3CCN(c4ccc(OC[C@H]5CO[C@](Cn6cncn6)(c6ccc(Cl)cc6Cl)O5)cc4)CC3)cc2)c1=O", "strain or isolate": "TIMM0354", "value": "0.0313 µg/mL"}
{"compound": "OC(Cn1cncn1)(Cn1nnnc1CCN1CCN(c2ccc(F)cc2)CC1)c1ccc(F)cc1F", "strain or isolate": "LA314", "value": ">16 µg/mL"}
{"compound": "O=c1c2cc(O)ccc2oc2cccc(O)c12", "read by": "broth dilution", "value": ">64 µg/mL"}
{"compound": "O=C1/C(=C/c2ccc(O)c(O)c2)CCc2ccccc21", "strain or isolate": "25", "value": "100 µg/mL"}
{"compound": "Cn1c(-c2ccncc2)noc1=S", "value": "0.51 µg/mL"}
{"compound": "CCCCCCCCCCCCCCCC(=O)NC(CCCN)C(=O)NC(CCCN)C(N)=O", "strain or isolate": "ATCC 2344", "read by": "broth dilution", "value": "6.25 µg/mL"}
{"compound": "Cc1ccc(-n2c(-c3ccncc3)nsc2=O)cc1", "value": "0.09 µg/mL"}
{"compound": "C[C@H]1N(C(=O)c2ccc(C(F)(F)F)cc2)CCO[C@@]1(Cn1cncn1)c1ccc(F)cc1F", "strain or isolate": "Isolate 4", "value": "2 µg/mL"}
{"compound": "CCCCCCCC(=O)NC(CCCN)C(=O)NC(CCCN)C(=O)NC(CCCN)C(=O)NC(CCCN)C(N)=O", "strain or isolate": "ATCC 2344", "read by": "broth dilution", "value": ">100 µg/mL"}
{"compound": "COc1cc(O)c2c(c1)C(=O)c1c(cc3c(c1O)-c1c(cc(C)c(C(=O)N[C@H](C)C(=O)O)c1O)[C@H](O[C@@H]1O[C@H](C)[C@H](O)[C@H](O[C@@H]4OC[C@@H](O)[C@H](O)[C@H]4O)[C@H]1O)[C@H]3O)C2=O", "strain or isolate": "5 isolates", "value": "0.63–1.25 µg/mL"}

A second listing of 3 rows from above:

| compound | strain or isolate | read by | conditions | value |
|---|---|---|---|---|
| CC(C)(C)c1ccc(CN(Cc2cccs2)n2ccnc2)cc1 |  |  |  | 67 µM |
| Cc1ccc(C(Cn2ccnc2)OC/C=C/c2ccccc2)cc1 |  |  |  | >128 µg/mL |
| CCCCCCCCCCSCC(OC)C(=O)O | ATCC66031 |  |  | 0.00124 µM |